Compound potency records, mixed from different reports. Data source: NIAID ChemDB in PubChem.

Common to all: growth or infection tests; organism: Candida tropicalis; endpoint: MIC50

Conditions beyond the fields shown may differ between rows. Blank or dashed fields: not listed here. A number after MIC or MFC names an inhibition level or a share of isolates.

| structure | strain or isolate | method | setting | value |
|---|---|---|---|---|
| Cc1ccc(-c2c3c(N)c4c(nc3nc3c2c(C)nn3-c2ccccc2)CCCC4)cc1 | CCC 131 | broth dilution / absorbance | - | 15.6 µg/mL |
| Clc1ccc(C(Cn2ccnc2)OCc2csc3c(Cl)cccc23)c(Cl)c1 | 65 isolates | visual reading | 24 h | 1 µg/mL |
| CCC(C)n1ncn(-c2ccc(N3CCN(c4ccc(OC[C@H]5CO[C@](Cn6cncn6)(c6ccc(Cl)cc6Cl)O5)cc4)CC3)cc2)c1=O | - | broth dilution | - | 1 µg/mL |
| CCC(C)CC(C)CCCCCCCCC(=O)N[C@H]1C[C@@H](O)[C@H](NCCN)NC(=O)[C@@H]2[C@@H](O)CCN2C(=O)[C@H]([C@H](O)CCN)NC(=O)[C@H]([C@H](O)[C@@H](O)c2ccc(O)cc2)NC(=O)[C@@H]2C[C@@H](O)CN2C(=O)[C@H]([C@@H](C)O)NC1=O | 20 isolates | - | - | 0.5 µg/mL |
| Nc1[nH]c(=O)ncc1F | 10 isolates | - | - | 0.08 µg/mL |
| COc1ccc(C=O)cc1OCC(O)(Cn1cncn1)c1ccc(F)cc1F | ATCC 750 | broth dilution | - | 128 µg/mL |
| Nc1[nH]c(=O)ncc1F | 11 isolates | - | - | 0.5 µg/mL |
| Nc1ncccc1-c1cc(Cc2ccc(COc3ccccn3)cc2)no1 | - | broth dilution | - | 0.03 µg/mL |
| C/C=C/[C@@H]1OC(=O)C=C[C@@H]1O | R2 (polyene-resistant) | - | - | 400 µg/mL |
| C[C@@H](c1ncncc1F)[C@](O)(Cn1cncn1)c1ccc(F)cc1F | - | broth dilution | - | 0.03 µg/mL |
| CC[C@@H]([C@H](C)O)n1ncn(-c2ccc(N3CCN(c4ccc(OC[C@@H]5CO[C@@](Cn6cncn6)(c6ccc(F)cc6F)C5)cc4)CC3)cc2)c1=O | 15 strains | - | - | 0.03 µg/mL |
| C[C@@H](c1ncncc1F)[C@](O)(Cn1cncn1)c1ccc(F)cc1F | 38 isolates | - | - | ≤0.06 µg/mL |
| CCCCCOc1ccc(-c2cc(-c3ccc(C(=O)N[C@H]4C[C@@H](O)[C@@H](O)NC(=O)[C@@H]5[C@@H](O)[C@@H](C)CN5C(=O)[C@H]([C@H](O)CC(N)=O)NC(=O)[C@H]([C@H](O)[C@@H](O)c5ccc(O)c(OS(=O)(=O)O)c5)NC(=O)[C@@H]5C[C@@H](O)CN5C(=O)[C@H]([C@@H](C)O)NC4=O)cc3)no2)cc1 | - | broth dilution | - | 0.016 µg/mL |
| COc1cc(/C=C2\SC(=S)NC2=O)ccc1OCC(O)(Cn1cncn1)c1ccc(F)cc1F | ATCC 750 | broth dilution | - | 16 µg/mL |

2 of the rows above, restated:

structure | strain or isolate | method | setting | value
Nc1[nH]c(=O)ncc1F | 10 isolates | - | - | 0.08 µg/mL
CCC(C)n1ncn(-c2ccc(N3CCN(c4ccc(OC[C@H]5CO[C@](Cn6cncn6)(c6ccc(Cl)cc6Cl)O5)cc4)CC3)cc2)c1=O | - | broth dilution | - | 1 µg/mL